Experimental findings from patent US6925388B1, “Heterocyclic nonnucleoside inhibitors of reverse transcriptase” (Parker Hughes Institute, priority 1998, dated 2005) are described below.

A value given as a limit tells only on which side of the number the result lay.

For one data set, the system named is HIV-1 strain HTLVIIIB
Briefly: p24 enzyme immunoassay of HIV replication in HTLVIIIB-infected peripheral blood mononuclear cells. It is filed as cell-based. To be noted: Table 4; ratio of fifty percent cytotoxic concentration to IC50. On the procedure: The HIV-1 strain HTLVIIIB (kindly provided by Dr. Neal T. Wetherall, VIROMED Laboratories, Inc.), was propagated in CCRF-CEM cells, and used in in vitro assays of the anti-HIV-1 activity of the synthesized novel derivatives. Cell-free supernatants of HTLVIIIB-infected CCRF-CEM cells were harvested, dispensed into 1 ml aliquots, and frozen at −70° C.
The incubated cells were then exposed to HIV-1 at a multiplicity of infection (MOI) of 0.1 during a one-hour adsorption period at 37° C. in a humidified 5% CO2 atmosphere. […] Aliquots of culture supernatants were removed from the wells on the 7th day after infection for p24 antigen assays. […] Ag.
The applied p24 enzyme immunoassay (EIA) was the unmodified kinetic assay commercially available from Coulter Corporation/Immunotech, Inc. (Westbrooke, Me.). In the assay, a murine monoclonal antibody against HIV core protein is coated onto microwell strips. Antigen (HIV core protein) present in the test culture supernatant samples binds the antibody and the bound antibody-antigen complex is quantitated. Percent viral inhibition was calculated by comparing the p24 values from the test substance-treated infected cells with p24 values from untreated infected cells (i.e., virus controls).
For `Cc1cn([C@H]2C[C@H](N=[N+]=[N-])[C@@H](CO)O2)c(=O)[nH]c1=O` [AZT, reference compound], the S.I. is given as 1250.
For `CSCSc1nc(Cc2ccccc2)c(C)c(=O)[nH]1` [Compound 3a, 5-methyl-2-[(methylthiomethyl)thio]-6-benzyl-pyrimidin-4-1H-one], the S.I. is more than 22.
For `CCc1c(Cc2ccccc2)nc(SCSC)[nH]c1=O` [Compound 3b, 5-ethyl-2-[(methylthiomethyl)thio]-6-benzyl-pyrimidin-4-1H-one], the S.I. is on record as more than 125.
As to `CSCSc1nc(Cc2ccccc2)c(C(C)C)c(=O)[nH]1` [Compound 3c, 5-isopropyl-2-[(methylthiomethyl)thio]-benzyl-pyrimidin-4-1H-one], the S.I. is recorded as >100,000.

Still in this data set, the particulars now being: Table 5; IC50[MTA]/IC50[p24].
`Cc1cn([C@H]2C[C@H](N=[N+]=[N-])[C@@H](CO)O2)c(=O)[nH]c1=O` [AZT, reference compound]: the S.I. is given as 6250.
Consider `S=C(NCCc1ccccn1)Nc1ccccn1` [Compound I-1, N-[2-(2-pyridylethyl)]-N′-[2-(pyridyl)]-thiourea], for which the S.I. was more than 435.
As for `S=C(NCCN1CCCCC1)Nc1ccc(Br)cn1` [Compound I-3, N-[2-(1-piperidinoethyl)]-N′-[2-(5-bromopyridyl)]-thiourea], the S.I. is recorded as >10^5.
Take `COc1ccc(OC)c(CCNC(=S)Nc2ccc(Br)cn2)c1` [Compound I-4, N-[2-(2,5-dimethoxyphenylethyl)]-N′-[2-(5-bromopyridyl)]-thiourea]: the S.I. is >10^5.
Still for that read-out and setting: to `S=C(NCCc1ccccn1)Nc1ccc(Br)cn1` [Trovirdine, reference compound] belongs >10^4.
